Source: PMC12102759

Target: SARS‐CoV‐2 NSP3 ADRP domain (1023–1192), tag cleaved, for FP (SARS-CoV-2) (UniProt P0DTD1)
Test: FP

MBOAT1 wild-type peptide was tested. Which Kd did it give?
The Kd was 49 µM.
